The values that follow come from paper PMC3347997, “Identification of basepairs within Tn5 termini that are critical sfor H-NS binding to the transpososome and regulation of Tn5 transposition”.

One series has as its target Tn5 transposase (UniProt Q46731). The series is described as follows: EMSA. Conditions: no divalent metal, 2 nM 32P-DNA, 200 nM transposase (400 nM for ME 8/9), H-NS normally 23-849 nM added simultaneously, 30 min 37 C, 5% native PAGE, recombinant protein, label: 5' 32P. In general terms: A gel shift assay detects complexes by their altered migration in electrophoresis.

Another series relates to H-NS + Tn5 transposase. The series is described as follows: EMSA. The settings on record: transpososome itself forms, no divalent metal, 2 nM 32P-DNA, 200 nM transposase (400 nM for ME 8/9), H-NS normally 23-849 nM added simultaneously, 30 min 37 C, 5% native PAGE, recombinant protein, label: 5' 32P.
Where [1] appears, read: transpososome assembly, 200 nM transposase.

For at least one entry, the source does not settle the construct or the ends of the probe. For part of these data: No signal at the amounts used counts as a negative. For part of these data: At least one verdict rests on a figure or table, not on a statement of the authors.

For “CCCTGCAGGTCGACTGACTCTTATACACAAGTTGAGTGAGTGAGCATGCA / ACATGCATGCTCACTCACTCAACTTGTGTATAAGAGTCAGTCGACCTGCAGGG [OE 53-bp transposon end]”, the binding result with Tn5 transposase (setting [1]) is on record as “binds”.

In the case of “CCCTGCAGGTCGACTGTCTCGCATACACATCTTGAGTGAGTGAGCATGCA / ACATGCATGCTCACTCACTCAAGATGTGTATGCGAGACAGTCGACCTGCAGGG [ME 8/9 53-bp transposon end]”, the binding result in the series on H-NS + Tn5 transposase (H-NS binding to transpososome not detected, transposase 400 nM) is listed as “no binding”; in the series with Tn5 transposase (transpososome assembly, 400 nM transposase used to obtain roughly equivalent transpososome), “binds”.

As for “CCCTGCAGGTCGACTCTCTCTTATACACATCTTGAGTGAGTGAGCATGCA / ACATGCATGCTCACTCACTCAAGATGTGTATAAGAGACAGTCGACCTGCAGGG [ME 3 53-bp transposon end]”, the binding result with H-NS + Tn5 transposase (H-NS binding to preformed-type transpososome not detected) was “no binding”; with Tn5 transposase (transpososome assembly not impaired, 200 nM transposase), “binds”.

As to “CCCTGCAGGTCGACTGTCTCTTATACACATCTTGAGTGAGTGAGCATGCA / ACATGCATGCTCACTCACTCAAGATGTGTATAAGAGACAGTCGACCTGCAGGG [WT ME 53-bp transposon end]”, the binding result with Tn5 transposase (setting [1]) is recorded as “binds”.
